SI (selectivity index, CC50/EC50) data for two molecules are collected here from paper PMC8625466 (Viruses, 2021).

This assay relates to FMDV.

Where two headings read alike, the source gives them in different places.

In the case of `COc1ccc(-c2cc(=O)c3c(O)cc(O)c(-c4cc(-c5cc(=O)c6c(O)cc(O)cc6o5)ccc4OC)c3o2)cc1` [Isoginkgetin], the SI (selectivity index, CC50/EC50) reads like this: (post-viral entry) above 51.8; (prophylaxis) above 14.8; (viral entry) above 49.8.

In the case of `O=c1cc(-c2ccc(O)c(O)c2)oc2cc(O)cc(O)c12` [Luteolin], the SI (selectivity index, CC50/EC50) was above 10 (post-viral entry), above 3.87 (prophylaxis) and above 10.3 (viral entry).
